{"source": "PubChem BioAssay AID1259414 (Drosophila RNAi Screening Center, 2018)", "screen": "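Host factors increasing or decreasing Wolbachia levels in cultured fly cells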 (primary screen)", "system": "Drosophila JW18 cells infected with Wolbachia", "reagent": "long dsRNA against Drosophila genes, 0.25 µg dsRNA per well of a 384-well plate", "timing": "5 days", "challenge": "cells persistently infected with Wolbachia before knock-down; no added drug", "measured": "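Imaged fluorescence in situ signal for Wolbachia 23S rRNA per DAPI-counted host cell, given as a robust z-score within each plate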", "direction": "Wolbachia per cell robust z: higher = more Wolbachia per host cell than the plate typical", "active means": "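Active if absolute robust z reaches 1.5 in two or more of three replicates, leaving out multi- or no-target dsRNAs, genes unexpressed in JW18 and A1 wells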", "note": "In all, the deposit lists about 24,000 reagents; below is an unselected part of those with a known target gene and a result. In the full data, about 1,210 (5%) are marked active. 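Inactive calls also include excluded dsRNAs with several or no targets, genes unexpressed in JW18, and well A1, regardless of score.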"}
{"gene knocked down":"tutl (turtle)","amplicon":"DRSC00441","Wolbachia per cell robust z, rep 1":0.829,"Wolbachia per cell robust z, rep 2":-0.495,"Wolbachia per cell robust z, rep 3":0.749,"Outcome":"inactive"}
{"gene knocked down":"tutl (turtle)","amplicon":"DRSC00442","Wolbachia per cell robust z, rep 1":0.648,"Wolbachia per cell robust z, rep 2":0.238,"Wolbachia per cell robust z, rep 3":-0.466,"Outcome":"inactive"}
{"gene knocked down":"tutl (turtle)","amplicon":"DRSC00443","Wolbachia per cell robust z, rep 1":-3.65,"Wolbachia per cell robust z, rep 2":0.793,"Wolbachia per cell robust z, rep 3":-0.23,"Outcome":"inactive"}
{"gene knocked down":"tutl (turtle)","amplicon":"DRSC27605","Wolbachia per cell robust z, rep 1":-0.393,"Wolbachia per cell robust z, rep 2":-1.02,"Wolbachia per cell robust z, rep 3":0.646,"Outcome":"inactive"}
{"gene knocked down":"Sec20 (Secretory 20)","amplicon":"DRSC12295","Wolbachia per cell robust z, rep 1":-1.07,"Wolbachia per cell robust z, rep 2":-1.16,"Wolbachia per cell robust z, rep 3":-1.05,"Outcome":"inactive"}
{"gene knocked down":"Sec20 (Secretory 20)","amplicon":"DRSC29886","Wolbachia per cell robust z, rep 1":0.578,"Wolbachia per cell robust z, rep 2":1.25,"Wolbachia per cell robust z, rep 3":0.396,"Outcome":"inactive"}

2 of these entries, reformatted.
gene knocked down,amplicon,"Wolbachia per cell robust z, rep 1","Wolbachia per cell robust z, rep 2","Wolbachia per cell robust z, rep 3",Outcome
tutl (turtle),DRSC00441,0.829,-0.495,0.749,inactive
tutl (turtle),DRSC00442,0.648,0.238,-0.466,inactive

The list goes on:
{"gene knocked down":"arg (arginase)","amplicon":"DRSC18737","Wolbachia per cell robust z, rep 1":-0.927,"Wolbachia per cell robust z, rep 2":-0.682,"Wolbachia per cell robust z, rep 3":0.184,"Outcome":"inactive"}
{"gene knocked down":"arg (arginase)","amplicon":"DRSC29488","Wolbachia per cell robust z, rep 1":-0.654,"Wolbachia per cell robust z, rep 2":-1.4,"Wolbachia per cell robust z, rep 3":-0.713,"Outcome":"inactive"}
{"gene knocked down":"C15","amplicon":"DRSC13495","Wolbachia per cell robust z, rep 1":0.725,"Wolbachia per cell robust z, rep 2":0.72,"Wolbachia per cell robust z, rep 3":0.312,"Outcome":"inactive"}
{"gene knocked down":"TwdlB (TweedleB)","amplicon":"DRSC16050","Wolbachia per cell robust z, rep 1":-4.01,"Wolbachia per cell robust z, rep 2":-1.32,"Wolbachia per cell robust z, rep 3":-3.23,"Outcome":"inactive"}
{"gene knocked down":"TwdlB (TweedleB)","amplicon":"DRSC25071","Wolbachia per cell robust z, rep 1":-1.04,"Wolbachia per cell robust z, rep 2":-1.76,"Wolbachia per cell robust z, rep 3":-0.701,"Outcome":"inactive"}
{"gene knocked down":"GlyRS (Glycyl-tRNA synthetase)","amplicon":"DRSC10711","Wolbachia per cell robust z, rep 1":0.261,"Wolbachia per cell robust z, rep 2":-0.0433,"Wolbachia per cell robust z, rep 3":2.01,"Outcome":"inactive"}
